Experimental data as given in patent US20230265069A1, “Small Molecule Inhibitors That Block the Budding of Enveloped Viruses” (priority 2020, published 2023).

Experiments:
HIV-1 = conditions: read-out: EC50, release of HIV-1 from 293T cells, p24 in media
HSV-2 = HSV-2 release from infected Vero cells, plaque assay; conditions: 24 hours after infection

Substance	EC50 (HIV-1)	Drop of HSV-2 in released infectious virus (HSV-2)
Ilaprazole	≤ 1000 nM	–
Tenatoprazole	–	4-5 log
